Where “and” joins values, the source holds several entries; their conditions need not be identical. Equal entries are not always repeated.

Results on one substance are retold here after US20240124545A1, “COMPOSITIONS AND METHODS RELATING TO THE TREATMENT OF DISEASES” (ILC THERAPEUTICS LIMITED, priority 2021, published 2024).

The test system of the assay is HIV-1 LAI. The experiment in a line: HIV-1 LAI infectivity assay with β-galactosidase readout (Experiment 5). Particulars: for HIV-1 Infectivity in HeLa-CD4-βgal cells (% vehicle): 48 hours, mean of duplicates; for HIV Infectivity in HeLa CD4 βgal cells (β-galactosidase units): individual values. The class given is cell-based, human immunodeficiency virus type 1 (HIV-1) LAI strain.

Take Interferon-beta 1a [Sample C]: the “HIV-1 Infectivity in HeLa-CD4-βgal cells (% vehicle)” value amounted to 104.0 % vehicle (0.0001 ng/mL); 86.6 % vehicle (0.001 ng/mL); 93.5 % vehicle (0.01 ng/mL); 95.3 % vehicle (0.1 ng/mL); 92.7 % vehicle (1 ng/mL); 87.4 % vehicle (10 ng/mL). The “HIV-1 Infectivity in HeLa-CD4-βgal cells (% vehicle)” value is 47.9 % vehicle (100 ng/mL), 30.8 % vehicle (1,000 ng/mL) and 8.9 % vehicle (10,000 ng/mL). For the same substance, the “HIV Infectivity in HeLa CD4 βgal cells (β-galactosidase units)” value reads like this: (0.0001 ng/mL) 1,061,587 RLU and 1,054,513 RLU; (0.001 ng/mL) 866,038 RLU and 897,100 RLU; (0.01 ng/mL) 931,295 RLU and 971,503 RLU; (0.1 ng/mL) 875,861 RLU and 1,062,570 RLU; (1.0 ng/mL) 854,623 RLU and 1,031,833 RLU; (10 ng/mL) 863,734 RLU and 915,402 RLU. Moreover, the “HIV Infectivity in HeLa CD4 βgal cells (β-galactosidase units)” value is 479,228 RLU and 500,227 RLU (100 ng/mL); 301,335 RLU and 330,945 RLU (1,000 ng/mL); 94,978 RLU and 94,195 RLU (10,000 ng/mL).
